# HIV-1 5' UTR: effect of mutations on RNA dimer formation

Sequence of the HIV-1 NL4-3 5' RNA, positions 1 to 437, as numbered in the source:
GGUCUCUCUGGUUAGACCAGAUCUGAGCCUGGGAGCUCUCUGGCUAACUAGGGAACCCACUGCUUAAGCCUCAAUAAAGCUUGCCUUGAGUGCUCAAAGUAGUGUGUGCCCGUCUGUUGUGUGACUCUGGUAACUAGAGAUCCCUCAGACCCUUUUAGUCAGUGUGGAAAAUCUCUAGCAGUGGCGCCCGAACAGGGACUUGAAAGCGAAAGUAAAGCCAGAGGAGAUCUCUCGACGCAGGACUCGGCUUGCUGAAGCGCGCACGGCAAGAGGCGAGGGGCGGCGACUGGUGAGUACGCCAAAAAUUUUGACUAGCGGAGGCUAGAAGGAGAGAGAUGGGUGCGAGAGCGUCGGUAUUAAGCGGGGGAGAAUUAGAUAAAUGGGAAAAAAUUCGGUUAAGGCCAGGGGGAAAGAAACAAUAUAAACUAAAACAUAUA

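Mutant RNA libraries with 1G, 2G or 3G starts, with or without cap, were folded at 37 °C for 30 min. Monomer and dimer bands were cut from native gels after folding in high salt (300 mM KCl, 5 mM MgCl2) or low salt (40 mM KCl, 0.1 mM MgCl2). Kdimer compares mutation frequencies in monomer and dimer, corrected for sequencing errors.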

Scale: median log2 Kdimer over the changes at a position; positive = changes inhibit dimerization, negative = changes enhance it. Sample: 3G capped low-salt. One numbering serves 1G, 2G and 3G. A position is written with its base where known.

{"position": "C267", "domain": "SL1", "3G capped low-salt": 3.22}
{"position": "A334", "domain": "AUG", "3G capped low-salt": 0.77}
{"position": "U355", "domain": "none", "3G capped low-salt": 0.11}
{"position": "471", "domain": "none", "3G capped low-salt": 0.04}
{"position": "G167", "domain": "PBS", "3G capped low-salt": 0.17}
{"position": "C188", "domain": "PBS", "3G capped low-salt": 0.67}
{"position": "G108", "domain": "U5", "3G capped low-salt": -0.36}
{"position": "G382", "domain": "none", "3G capped low-salt": 0.17}
{"position": "A59", "domain": "PolyA", "3G capped low-salt": 0.04}
{"position": "A424", "domain": "none", "3G capped low-salt": -0.03}
{"position": "A347", "domain": "none", "3G capped low-salt": 0.39}
{"position": "C262", "domain": "SL1", "3G capped low-salt": 3.32}
{"position": "A305", "domain": "none", "3G capped low-salt": 0.23}
{"position": "A67", "domain": "PolyA", "3G capped low-salt": -0.08}
{"position": "U200", "domain": "PBS", "3G capped low-salt": 0.07}
{"position": "U49", "domain": "TAR", "3G capped low-salt": -0.03}
{"position": "G226", "domain": "none", "3G capped low-salt": -0.60}
{"position": "G413", "domain": "none", "3G capped low-salt": 0.10}
{"position": "C287", "domain": "SL2", "3G capped low-salt": -0.79}
{"position": "G328", "domain": "none", "3G capped low-salt": -0.09}
{"position": "A271", "domain": "SL1", "3G capped low-salt": -0.24}
{"position": "U313", "domain": "SL3", "3G capped low-salt": 1.16}
{"position": "A370", "domain": "none", "3G capped low-salt": 0.05}
{"position": "G348", "domain": "none", "3G capped low-salt": 0.26}
{"position": "C316", "domain": "SL3", "3G capped low-salt": 0.63}
{"position": "G116", "domain": "none", "3G capped low-salt": -0.33}
{"position": "U128", "domain": "PAS", "3G capped low-salt": 0.85}
{"position": "G25", "domain": "TAR", "3G capped low-salt": -0.40}
{"position": "A376", "domain": "none", "3G capped low-salt": -0.14}
{"position": "G329", "domain": "none", "3G capped low-salt": 0.16}
{"position": "G292", "domain": "SL2", "3G capped low-salt": -0.19}
{"position": "G31", "domain": "TAR", "3G capped low-salt": -0.20}
{"position": "U65", "domain": "PolyA", "3G capped low-salt": 0.10}
{"position": "U182", "domain": "PBS", "3G capped low-salt": 0.72}
{"position": "497", "domain": "none", "3G capped low-salt": -0.04}
{"position": "U153", "domain": "PBS", "3G capped low-salt": 0.14}
{"position": "G320", "domain": "SL3", "3G capped low-salt": -0.21}
{"position": "U154", "domain": "PBS", "3G capped low-salt": 0.02}
{"position": "A204", "domain": "PBS", "3G capped low-salt": -0.03}
{"position": "450", "domain": "none", "3G capped low-salt": 0.05}
{"position": "A77", "domain": "PolyA", "3G capped low-salt": 0.20}
{"position": "G237", "domain": "none", "3G capped low-salt": 1.00}

2 of these entries, quoted again:

G226 gave -0.60.
position 497 gave -0.04.

Bases beyond 437 are not listed in the source.

From the data files of Ye et al. 2022, doi:10.1038/s41594-022-00746-2.